Assay results: patent US20170128489A1 (priority 2014, published 2017)

Target: influenza A M2 channels (A/Udorn/72, S31N mutant) (Influenza A virus, UniProt P0DOF5, S31N)
Format: cell-based
Conditions: for pEC50 / Percent Block: pH 5.3

| Substance | Percent Washout | pEC50 | Percent Block |
| --- | --- | --- | --- |
| Copper bispinanamine imidazole [Bis(Pin-Imid)-Cu] | 8% | 3.94 | 45% |
| Copper pinanamine imidazole [Pin-Imid-Cu] | 66% | 4.41 | 83% |
| Zinc Pinanamine Imidazole [Pin-Imid-Zn] | 22% | 3.95 | 39% |

pEC50: −log10 of the molar value.
